Source: article PMC6270409, “Synthesis and Anti-Influenza Virus Activities of a Novel Class of Gastrodin Derivatives” (Molecules, 2013)
Where two headings read alike, the source gives them in different places.

How the values were obtained:
[1] = system: influenza A/Hanfang/359/95(H3N2); assay type: cell-based, influenza A virus
[2] = system: influenza A/FM/1/47(H1N1); assay type: cell-based, influenza A virus
[3] = system: influenza B (B/Jifang/13/97); test: Anti-influenza CPE assay in MDCK cells, oseltamivir-null B/Jifang/13/97; assay type: cell-based, influenza B virus

Molecule | SI A/FM/1/47 ([2]; TC50/IC50) | SI A/Hanfang/359/95 ([1]; TC50/IC50) | further results
COC(=O)c1ccc(F)c(O[C@@H]2O[C@H](COC(C)=O)[C@@H](OC(C)=O)[C@H](OC(C)=O)[C@H]2OC(C)=O)c1 [Compound 1a, Methyl 4-fluoro-3-((2S,3R,4S,5R,6R)-3,4,5-triacetoxy-6-(acetoxymethyl)-tetrahydro-2H-pyran-2-yloxy)benzoate] | – | – | SI A/Hanfang/359/95 [1]: 4.3; SI A/FM/1/47 [2]: 5.6; SI B/Jifang/13/97 [3]: 6.14
COC(=O)c1c(OC)cc(O[C@@H]2O[C@H](COC(C)=O)[C@@H](OC(C)=O)[C@H](OC(C)=O)[C@H]2OC(C)=O)cc1OC [Compound 2a, Methyl 2,6-dimethoxy-4-((2S,3R,4S,5R,6R)-3,4,5-triacetoxy-6-(acetoxymethyl)-tetrahydro-2H-pyran-2-yloxy)benzoate] | 2.0 | – | SI B/Jifang/13/97 ([3]; TC50/IC50): 3.94
COC(=O)c1ccc(N)c(O[C@@H]2O[C@H](COC(C)=O)[C@@H](OC(C)=O)[C@H](OC(C)=O)[C@H]2OC(C)=O)c1 [Compound 4a, Methyl 4-amino-3-((2S,3R,4S,5R,6R)-3,4,5-triacetoxy-6-(acetoxymethyl)-tetrahydro-2H-pyran-2-yloxy)benzoate] | >3.4 | – | –
COC(=O)c1ccc(O[C@@H]2O[C@H](COC(C)=O)[C@H](OC(C)=O)[C@H](OC(C)=O)[C@H]2OC(C)=O)c(F)c1 [Compound 7b, Methyl 3-fluoro-4-((2S,3R,4S,5S,6R)-3,4,5-triacetoxy-6-(acetoxymethyl)-tetrahydro-2H-pyran-2-yloxy)benzoate] | >3.0 | – | –
COC(=O)c1c(F)cccc1O[C@@H]1O[C@H](COC(C)=O)[C@@H](OC(C)=O)[C@H](OC(C)=O)[C@H]1OC(C)=O [Compound 9a, Methyl 2-fluoro-6-((2S,3R,4S,5R,6R)-3,4,5-triacetoxy-6-(acetoxymethyl)-tetrahydro-2H-pyran-2-yloxy)benzoate] | >11.6 | – | –
COC(=O)c1c(F)cccc1O[C@@H]1O[C@H](COC(C)=O)[C@H](OC(C)=O)[C@H](OC(C)=O)[C@H]1OC(C)=O [Compound 9b, Methyl 2-fluoro-6-((2S,3R,4S,5S,6R)-3,4,5-triacetoxy-6-(acetoxymethyl)-tetrahydro-2H-pyran-2-yloxy)benzoate] | 6.0 | – | –
CC(=O)OC[C@H]1O[C@@H](Oc2cccc(F)c2C)[C@H](OC(C)=O)[C@@H](OC(C)=O)[C@H]1OC(C)=O [Compound 10b, (2R,3S,4S,5R,6S)-2-(Acetoxymethyl)-6-(3-fluoro-2-methylphenoxy)-tetrahydro-2H-pyran-3,4,5-triyl triacetate] | – | 5.2 | SI B/Jifang/13/97 ([3]; TC50/IC50): 6.80
CC(=O)OC[C@H]1O[C@@H](Oc2ccncc2)[C@H](OC(C)=O)[C@@H](OC(C)=O)[C@@H]1OC(C)=O [Compound 11a, (2R,3R,4S,5R,6S)-2-(Acetoxymethyl)-6-(pyridin-4-yloxy)-tetrahydro-2H-pyran-3,4,5-triyl triacetate] | 4.3 | 5.6 | –
CC(=O)OC[C@H]1O[C@@H](Oc2ncccc2F)[C@H](OC(C)=O)[C@@H](OC(C)=O)[C@@H]1OC(C)=O [Compound 12a, (2R,3R,4S,5R,6S)-2-(Acetoxymethyl)-6-(3-fluoropyridin-2-yloxy)-tetrahydro-2H-pyran-3,4,5-triyl triacetate] | 13.9 | – | –
CCOC(=O)C1=C[C@@H](OC(CC)CC)[C@H](NC(C)=O)[C@@H](N)C1 [Oseltamivir, reference compound] | 70.1 | 1938.5 | –
Ethyl 4-fluoro-2-((2S,3R,4S,5R,6R)-3,4,5-triacetoxy-6-(acetoxymethyl)-tetrahydro-2H-pyran-2-yloxy)-benzoate [Compound 8a] | 3.3 | 6.2 | –
Methyl 4-((2S,3R,4S,5R,6R)-3,4,5-triacetoxy-6-(acetoxymethyl)-tetrahydro-2H-pyran-2-yloxy)benzoate [Compound 5a] | – | 2.5 | –
